Data from US20020032307A1 (GENERAL HOSPITAL CORPORATION A MASSACHUSETTS, published 2002).

Target: T1, p170 receptor (170 kd cell surface glycoprotein of duck hepatocytes) (duck (Pekin duck), UniProt Q90240 26-1389, glycosylated)
T1 construct: Native protein in detergent lysates of primary duck hepatocytes or duck liver; also called p170 protein; 170 kd glycoprotein
T1 sequence: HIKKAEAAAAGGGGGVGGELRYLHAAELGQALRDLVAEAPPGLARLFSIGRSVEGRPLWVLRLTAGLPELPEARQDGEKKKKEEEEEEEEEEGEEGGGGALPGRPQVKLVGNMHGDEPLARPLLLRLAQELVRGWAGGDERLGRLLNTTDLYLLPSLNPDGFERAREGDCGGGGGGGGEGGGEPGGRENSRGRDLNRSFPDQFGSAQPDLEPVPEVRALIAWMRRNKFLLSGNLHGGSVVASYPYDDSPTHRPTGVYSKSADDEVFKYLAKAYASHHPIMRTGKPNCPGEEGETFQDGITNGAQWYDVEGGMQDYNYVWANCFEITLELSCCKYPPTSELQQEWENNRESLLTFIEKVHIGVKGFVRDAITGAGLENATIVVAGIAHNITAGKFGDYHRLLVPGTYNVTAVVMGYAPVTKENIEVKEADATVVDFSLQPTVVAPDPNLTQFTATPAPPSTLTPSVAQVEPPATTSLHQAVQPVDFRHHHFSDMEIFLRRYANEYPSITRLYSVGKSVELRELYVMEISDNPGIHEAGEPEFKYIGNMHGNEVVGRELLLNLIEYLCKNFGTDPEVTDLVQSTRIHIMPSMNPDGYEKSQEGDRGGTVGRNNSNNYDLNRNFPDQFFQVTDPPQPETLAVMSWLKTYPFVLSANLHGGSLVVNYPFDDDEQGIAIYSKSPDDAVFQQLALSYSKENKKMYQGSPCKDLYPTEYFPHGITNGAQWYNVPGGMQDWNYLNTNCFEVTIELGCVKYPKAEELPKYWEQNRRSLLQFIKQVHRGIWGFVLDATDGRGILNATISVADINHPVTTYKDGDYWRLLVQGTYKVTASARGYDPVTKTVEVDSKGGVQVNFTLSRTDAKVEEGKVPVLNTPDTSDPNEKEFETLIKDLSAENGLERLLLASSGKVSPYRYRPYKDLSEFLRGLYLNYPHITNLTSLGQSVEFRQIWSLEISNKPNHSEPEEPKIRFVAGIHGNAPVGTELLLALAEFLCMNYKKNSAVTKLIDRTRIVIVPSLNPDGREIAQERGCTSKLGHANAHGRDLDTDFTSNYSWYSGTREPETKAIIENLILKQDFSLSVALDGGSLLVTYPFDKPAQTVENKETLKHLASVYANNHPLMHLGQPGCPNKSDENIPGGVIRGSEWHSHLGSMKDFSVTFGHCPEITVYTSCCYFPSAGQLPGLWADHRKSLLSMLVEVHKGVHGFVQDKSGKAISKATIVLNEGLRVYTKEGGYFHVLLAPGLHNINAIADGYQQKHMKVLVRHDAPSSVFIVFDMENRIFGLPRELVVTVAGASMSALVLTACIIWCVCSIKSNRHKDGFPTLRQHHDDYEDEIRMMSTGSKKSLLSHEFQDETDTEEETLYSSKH
Test: preclearing with Sepharose beads and GST-bound beads, 35S-labelled primary duck hepatocyte lysate, SDS-PAGE/fluorography

B1: intact GST protein expressed from the pGEX 2TK expression vector (other)
chain: MSPILGYWKIKGLVQPTRLLLEYLEEKYEEHLYERDEGDKWRNKKFELGLEFPNLPYYIDGDVKLTQSMAIIRYIADKHNMLGGCPKERAEISMLEGAVLDIRYGVSRIAYSKDFETLKVDFLSKLPEMLKMFEDRLCHKTYLNGDHVTHPDFMLYDALDVVLYMDPMCLDAFPKLVCFKKRIEAIPQIDKYLKSSKYIAWPLQGWQATFGGGDHPPK
notes: also called GST alone
  binding result: no binding
